Percent effect of library compounds

Source: ChEMBL document CHEMBL3988442, “University of Dundee, Small-Polar-MMV Screening Library” (2021).

Mtb glucose medium: 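Whole-cell growth test on Mycobacterium tuberculosis, read after 3 days in glucose-containing 7H9 medium; the read-out is not stated. Compounds at 500 µM. The record gives no direction; compounds that gave an IC50 in retests scored well above the rest, so higher reads as more growth inhibition. Of about 18,000 compounds tested this way, about 1,400 (7.9%) reached 50% or more in at least one test.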
Mtb cholesterol medium: 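Whole-cell growth test on Mycobacterium tuberculosis, read after 4 days in a medium based on cholesterol and the lipid DPPC; the read-out is not stated. Concentration: 500 µM. Direction is inferred from retests: higher values go with more growth inhibition. About 18,000 compounds were tested under these conditions; 5% (about 900) showed 50% or more at least once.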

Each number is a percent effect as filed. The controls that fix the scale are not given in the record; negative values are as filed. The entries come from a sample that favours strong results. A dash means the value is not listed here; it may have been measured.

| structure | Mtb glucose medium | Mtb cholesterol medium |
|---|---|---|
| `CCc1c[nH]ccc1=N` | -9.47 | - |
| `O=C(NCCN1CCNCC1)c1ccco1` | - | -16.24 |
| `COc1ccc(CNC(=O)CCNC(=O)C(C)C)cc1` | - | -5.26 |
| `CCN(CC)CC(=O)N(C)Cc1ccncc1` | 1.507 | - |
| `O=C1NCCN(CCn2cncn2)C1c1cccs1` (stereo not given) | - | -19.59 |
| `Cn1cc(CC(CN)CO)cn1` (stereo not given) | - | -7.234 |
| `C=C(C)CSCC(=O)NC(C)C(=O)N1CCCCC1` (stereo not given) | - | 19.56 |
| `COC1CCN(C(=O)Cc2noc3ccccc23)CC1` | - | 22.92 |
| `CC(Nc1ccc(F)cc1)C(=O)N1CCCC1` (stereo not given) | 59.62 | 51.75 |
| `CCCS(=O)(=O)N1C[C@H](c2ccc(OC)cc2)[C@@H](N)C1` | - | 17.52 |
| `CCOC(=O)c1cc(C(=O)OCC)n(C)n1` | -2.257 | - |
| `OCCOCCNCC(O)COCc1ccccc1Cl` (stereo not given) | 67.41 | - |
| `COc1cc2c(cc1OC)CN(C(=O)C(C)C)CC2` | 37.07 | - |
| `CC(C)CCC(C)NC(=O)c1ccc(=O)n(C)c1` (stereo not given) | - | 23.97 |
| `CCO[C@H]1CN(C)C[C@@H]1NC(=O)c1ccc[nH]1` | -2.742 | - |
| `CC(=O)NCc1ccc(-c2ccccc2CO)nc1` | -12.76 | - |
| `CC(C)N(CC(N)=O)C(=O)COc1ccc(F)cc1Br` | 33.05 | - |
| `CCN1CCN(C(=O)Nc2cc(C)ccc2OC)CC1` | 25.4 | - |
| `CCn1nc(C)c(CO)c1C` | -2.56 | - |
| `CC(NC(=O)CCCN1CCCCC1)c1cnn(C)c1` (stereo not given) | 6.015 | - |
| `CC(=O)N1CSCC1c1nc(-c2cccs2)no1` (stereo not given) | 18.56 | - |
| `CC(C)C(C)NC(=O)CNC(=O)C1CC1` (stereo not given) | 3.57 | - |
| `CCCOc1ccc(CN)cc1` | 23.15 | - |
| `NCc1cccc(=O)[nH]1` | 1.977 | - |
| `CCOC(=O)CN(C(C)=O)c1ccc(C)cc1` | - | 22.74 |
| `CC(C)C(=O)NC1CCN(C(=O)c2ccccc2)CC1` | -12.84 | - |
| `CCc1c(C)nn(CCNC(=O)[C@H](C)NC)c1C` | 1.617 | - |
| `CN(C)C[C@@H]1[C@H]2CN(Cc3cccnc3)C[C@@H]12` | 9.552 | - |
| `Cc1ccccc1-n1nnnc1SC(C)C(=O)N(C)C` (stereo not given) | 40.68 | 22.39 |
| `COc1ccnc(CN)c1F` | 13.43 | - |
| `NC1COC2(CCCCC2)C1` (stereo not given) | - | 5.514 |
| `Cc1nccc(NC(=O)C2CN(C)CCO2)c1Cl` (stereo not given) | -7.12 | -10.95 |
| `CN(C(=O)COc1cccc(C#N)c1)C1CC1` | -6.297 | - |
| `CN(C)c1cccc(CN)n1` | 4.088 | - |
| `COc1ccc(CCNc2ccc3nnnn3n2)cc1` | 58.27 | - |
| `COc1ccnc(N2CCCNCC2)n1` | 71.2 | 59.99 |
| `Cc1cccc2[nH]cc(CO)c12` | 24.07 | 15 |
| `NCCc1nc(N)no1` | - | -7.559 |
| `NCc1nc(-c2ccsc2)no1` | 1.023 | 12.67 |
| `CCc1noc(C)c1C(=O)NCCN(C)C` | 7.39 | - |
| `CCN(C(=O)Cc1ccsc1)C1CCS(=O)(=O)C1` (stereo not given) | 1.56 | - |
| `C[C@@]1(O)CCN(C(=O)c2cnc(C3CC3)nc2)C[C@@H]1O` | 8.425 | - |
| `Cn1c(C(=O)N2CCCS2(=O)=O)cc2ccccc21` | - | 11.95 |
| `O=C(CCc1ccccn1)N[C@@H]1CCNC[C@H]1O` | 16.68 | - |

Repeated from the top, 3 entries:

| structure | Mtb glucose medium | Mtb cholesterol medium |
|---|---|---|
| `CCc1c[nH]ccc1=N` | -9.47 | - |
| `O=C(NCCN1CCNCC1)c1ccco1` | - | -16.24 |
| `COc1ccc(CNC(=O)CCNC(=O)C(C)C)cc1` | - | -5.26 |